Results taken from US6461863 (UNIVERSITY OF WYOMING, dated 2002).

Molecular target: Ricinus communis agglutinin (RCA), digoxigenylated lectin (Ricinus communis, UniProt P06750 25-290; P06750 303-564)
Assay: lectin blot of immunoprecipitated t-PA

B1: human tissue plasminogen activator produced in Sf9 cells infected with Ac941t-PA (enzyme)
chain: not shown
B1: no binding.
